Anti-infective test results gathered from many reports (values: NIAID ChemDB through PubChem).

Shared fields: tests in culture; agent: HIV-1

An empty or dashed field is not shown. Lines come from different laboratories, so protocols vary. ECn: concentration that inhibits the pathogen or its effect by n%.

structure | setting | strain | cells | read-out | read by | changes | result
CCn1c(=O)c(C)cn([C@@H]2O[C@H](CO[Si](C)(C)C(C)(C)C)C3(OS(=O)(=O)C=C3N)[C@H]2O[Si](C)(C)C(C)(C)C)c1=O |  | IIIB | CEM | EC50 | syncytia |  | 0.061 ± 0.057 µg/mL
CC(C)=CCc1c(-c2ccc(O)cc2O)oc2c([C@H]3C=C(C)C[C@@H](c4ccc(O)cc4O)[C@@H]3C(=O)c3ccc(O)cc3O)c(O)cc(O)c2c1=O |  | IIIB | MT-4 | EC50 | MTT |  | >100 µg/mL
CC(=O)N1CCOCC1c1nc(C(=O)NCc2ccc(F)cc2)c(O)c(=O)n1C | 50% human serum | IIIB | MT-4 | EC95 | p24 / ELISA |  | >1 µM
CC/C(C)=C/Cc1c(O)cc2oc(-c3ccc(O)c(O)c3)cc(=O)c2c1O |  | IIIB | MT-4 | EC50 | cytopathic effect / MTT |  | >100 µg/mL
CCn1nc(Cc2ccc(OC(F)F)cc2)cc1C1CCN(C[C@H]2CN([C@@H](C(=O)O)C(C)C)C[C@@H]2c2cccc(F)c2)CC1 | 50% human serum | BaL | HeLa | EC50 | β-galactosidase |  | <0.1 µM
c1cc(CN2CCCNCCNCCCNCC2)ccc1CN1CCCNCCNCCCNCC1 |  | IIIB Recombinant | MT-4 | EC50 |  |  | 0.03 µM
Cc1ccnc2c1NC(=O)c1cccnc1N2C1CC1 |  | R82150 (RT-L100I) | MT-2 | EC50 | cytopathic effect | RT-L100I | 0.3 µM
Cc1cn([C@H]2C[C@H](N=[N+]=[N-])[C@@H](CO)O2)c(=O)[nH]c1=O |  | C | CEM + CEM-SS | EC50 | cytopathic effect / MTT |  | 0.007 µM
Nc1nc2c(ncn2[C@H]2CO[C@@H](CO)O2)c(=O)[nH]1 |  | HXB2D | CBMC | EC50 | RT activity |  | 0.21 µM
CCC[C@@H](c1ccc(C(F)(F)F)cc1)N1CCN(C2(C)CCN(C(=O)c3c(C)ncnc3C)CC2)C[C@@H]1C |  | 301657 Clinical isolates | PBMC | EC50 |  |  | <0.00009 µM
Fc1ccc(Cl)c(C2OCc3nc4ccccc4n32)c1 |  | IIIB | CEM | EC50 | cytopathic effect |  | 3.8 µM
c1cc(CN2CCCNCCNCCCNCC2)ccc1CN1CCCNCCNCCCNCC1 |  | NL4-3 | PBMC | EC50 | p24 |  | 0.007 µM
Fc1cccc(F)c1C1SCc2nc3ccccc3n21 |  | IIIB |  | EC50 | cytopathic effect / MTT | RT-Y188H | 4.16 µM
COCOc1ccc(/C=C/C(=O)c2c(O)cc(OCOC)cc2OCOC)cc1 |  | IIIB | MT-4 | EC50 | cytopathic effect / MTT |  | >20 µg/mL
Cc1ccnc2c1NC(=O)c1cccnc1N2C1CC1 |  | PERE98287RT Recombinant |  | EC50 |  |  | 0.01 µM
CCCCOc1ccc(Cc2cc(C3CCN(C[C@H]4CN([C@@H](C(=O)O)C5CCCCC5)C[C@@H]4c4cccc(F)c4)CC3)n(CC)n2)cc1 |  | BaL | HeLa | EC50 | β-galactosidase |  | <0.0004 µM
Cc1cn([C@H]2C[C@H](F)[C@@H](CO)O2)c(=O)[nH]c1=O |  | 689 | PBMC | EC50 | ELISA |  | 0.014 µM
O=c1cc(-c2ccc(O)cc2O)oc2cc(O)cc(O)c12 |  | IIIB | MT-4 | EC50 | cytopathic effect / MTT |  | >20 µg/mL
S=C(NCCc1ccccc1)Nc1ccccn1 |  | IIIB | MT-4 | EC50 | cytopathic effect |  | 0.78 µM
Cc1cn([C@H]2C[C@H](N=[N+]=[N-])[C@@H](CO)O2)c(=O)[nH]c1=O |  | IIIB | MT-4 | EC50 | p24 |  | 0.000542 µM
CCn1nc(Cc2ccc(OC3CC3)cc2)cc1C1CCN(C[C@H]2CN([C@@H](C(=O)O)C(C)(C)C)C[C@@H]2c2cccc(F)c2)CC1 |  | BaL | HeLa | EC90 | β-galactosidase |  | <0.00014 µM
Cn1c(C2COCCN2C(=O)OC(C)(C)C)nc(C(=O)NCc2ccc(F)cc2)c(O)c1=O | 10% FBS | IIIB | MT-4 | EC95 | p24 / ELISA |  | >1 µM
Cc1cn([C@H]2C=C[C@@H](CO)O2)c(=O)[nH]c1=O |  | JSL | PBMC | EC50 | p24 | MDR | 0.1 µM
CC(C)=CCC1(CC=C(C)C)C=C([C@@H]2COc3c(ccc4c3C=CC(C)(C)O4)C2)C(O)=CC1=O |  | IIIB | MT-4 | EC50 | MTT |  | >100 µg/mL
CC[C@@H](c1ccc(C(F)(F)F)cc1)N1CCN(C2(C)CCN(C(=O)c3c(C)ncnc3C)CC2)C[C@@H]1C |  | JV1083 Clinical isolates | PBMC | EC50 |  |  | <0.018 µM
Fc1ccc(F)c(C2OCc3nc4ccccc4n32)c1 |  | IIIB | CEM | EC50 | cytopathic effect | RT-E138K | ≥15 µM
CC1(C)C=Cc2c(ccc(-c3coc4cc(O)ccc4c3=O)c2O)O1 |  | IIIB | MT-4 | EC50 | MTT |  | >100 µg/mL
CCc1c(Sc2cc(C)cc(C)c2)n(COCCO)c(=O)[nH]c1=O |  | IIIB | MT-4 | EC50 | cytopathic effect / MTT | RT-D67N K70R K172R | 0.014 µM
C[C@@]1(O)[C@H](O)[C@@H](CO)O[C@H]1n1c2ncnc(N)c2c2c(=O)[nH]c(N)nc21 |  | LAI | PBMC | EC90 |  |  | >100 µM
CC(C)=CCc1c(O)cc(O)c2c(=O)c(O[C@@H]3O[C@@H](C)[C@H](O)[C@@H](O)[C@H]3O)c(-c3ccc(O)cc3)oc12 |  | IIIB | MT-4 | EC50 | cytopathic effect / MTT |  | >500 µg/mL
CCc1cc(NCc2nc3c(Cl)ccc(Cl)c3o2)c(=O)[nH]c1C |  | NL4-3 | MT-4 | EC50 | p24 | RT-Y181C | >3 µM
Nc1ccn([C@H]2CC[C@@H](CO)O2)c(=O)n1 |  | HXB2 | CD4+HELA + HeLa | EC50 | plaque count | RT-V75T | 1.35 ± 0.07 µM
CCn1nc(Cc2ccc(F)cc2F)cc1C1CCN(C[C@H]2CN([C@@H](C(=O)O)C(C)C)C[C@@H]2c2cccc(F)c2)CC1 |  | BaL | HeLa | EC90 | β-galactosidase |  | 0.1 µM
Cc1cn([C@H]2C[C@H](N=[N+]=[N-])[C@@H](CO)O2)c(=O)[nH]c1=O |  | KMR15 | MT-4 | EC50 | cytopathic effect / trypan blue |  | 0.016 µM
CC(=O)Oc1ccc(/C=C/C(=O)O[C@@H](C(=O)O)[C@@H](OC(=O)/C=C/c2ccc(OC(C)=O)c(OC(C)=O)c2)C(=O)O)cc1OC(C)=O |  | NL4-3 | MT-4 | EC50 | cytopathic effect / MTT | AMD3100-resistant | >74 µM
Cc1c(Sc2ccccc2)n(COCCO)c(=O)[nH]c1=O |  | R82150 (RT-L100I) | MT-2 | EC50 | cytopathic effect | RT-L100I | 19.5 µM
S=C(NCCc1ccccn1)Nc1ccc(Br)cn1 |  | IIIB | MT-4 | EC50 | cytopathic effect / XTT |  | 0.016 µM
O=c1[nH]cnc2c1ncn2[C@H]1CC[C@@H](CO)O1 |  | IIIB | CEM | EC50 | syncytia |  | 4.6 ± 2.6 µM
N#Cc1cc2[nH]c3ccccc3c2n(-c2ccc([N+](=O)[O-])cc2)c1=O |  | NNRTI-resistant | HeLa | EC50 | luciferase | RT-V106I Y188L | 0.06 µM
CCOc1ccc(Cc2cc(C3CCN(C[C@H]4CN([C@@H](C(=O)O)C(C)C)C[C@@H]4c4cccc(F)c4)CC3)n(CC)n2)cc1F |  | BaL | HeLa | EC90 | β-galactosidase |  | <0.00014 µM
CC(C)(C)[Si](C)(C)OC[C@H]1O[C@@H](n2cnc3c(=O)[nH]cnc32)[C@H](O[Si](C)(C)C(C)(C)C)C12OS(=O)(=O)C=C2N |  | IIIB | CEM | EC50 | syncytia |  | 0.19 µg/mL
Nc1nc(N)c2ncn([C@H]3CO[C@@H](CO)O3)c2n1 |  | IIIB | CBMC | EC50 | RT activity |  | 0.97 µM
CO[C@H]1CCCC[C@@H](c2ccccc2)OC(=O)C(C)[C@@]2(O)OC([C@@H](C)[C@H](O)[C@H]2OC)[C@@H](C)/C=C/[C@H]1OC |  | LAI | PBMC | EC50 | luciferase |  | 0.38 µM
COc1c(CC=C(C)C)cc(C2CC(=O)c3c(O)cc(O)cc3O2)c(CC=C(C)C)c1O |  | IIIB | MT-4 | EC50 | MTT |  | >20 µg/mL
Cc1cn([C@H]2C[C@H](N=[N+]=[N-])[C@@H](CO)O2)c(=O)[nH]c1=O |  | JSL | PBMC | EC50 | p24 | MDR | 0.3 µM
C[C@@]1(O)[C@H](O)[C@@H](CO)O[C@H]1n1c2ncnc(N)c2c2c(=O)[nH]c(=S)[nH]c21 |  | LAI | PBMC | EC90 |  |  | >100 µM
CCOCn1c(Cc2cc(C)cc(C)c2)c(CC)c(=O)[nH]c1=O |  | IIIB | CEM | EC50 | syncytia |  | 0.003 ± 0.001 µg/mL
CC(=O)Oc1ccc(/C=C/C(=O)O[C@H](C(=O)O)[C@H](OC(=O)/C=C/c2ccc(OC(C)=O)c(OC(C)=O)c2)C(=O)O)cc1OC(C)=O |  | NL4-3 | MT-4 | EC50 |  | AR117-resistant | >93 µM
Cc1ccc(-c2ccc3c(c2)C=C(C(=O)Nc2ccc(C[N+](C)(C)C4CCOCC4)cc2)CCC3)cc1 |  | CTV | PBMC | EC50 | p24 |  | 0.0035 µM
Cc1cn([C@H]2C[C@H](N=[N+]=[N-])[C@@H](CO)O2)c(=O)[nH]c1=O |  | IIIB S0561945 |  | EC50 |  |  | 0.003 µM
Cc1cn([C@H]2C=C[C@@H](CO)O2)c(=O)[nH]c1=O |  | RTMC (RT-V 75A) | CD4+HELA + HeLa | EC50 | plaque count | RT-V75A | 1.4 ± 0.28 µM
c1cc(CN2CCCNCCNCCCNCC2)ccc1CN1CCCNCCNCCCNCC1 |  | NL4-(WT) | MT-4 | EC50 | cytopathic effect / MTT |  | 0.003 µg/mL
CCCCN1C(=O)C(CC2CCCCC2)NC(=O)C12CCN(Cc1ccc3c(c1)OCCO3)CC2 |  | NL4-3 | PBMC | EC50 | p24 |  | >1 µM
CN1CCOCC1c1nc(C(=O)NCc2ccc(F)c(Cl)c2)c(O)c(=O)n1C | 50% human serum | IIIB | MT-4 | EC95 | p24 / ELISA |  | 0.031 µM
O=c1[nH]cnc2c1ncn2[C@H]1CC[C@@H](CO)O1 |  | IIIB | MT-4 | EC50 | cytopathic effect |  | 13.3 µM
Nc1ncnc2c1ncn2CCOCP(=O)(O)O |  | IIIB | MT-2 | EC50 | cytopathic effect |  | 2.85 µM
CCc1cc(NCc2nc3c(Cl)ccc(Cl)c3o2)c(=O)[nH]c1C |  | IIIB | MT-4 | EC50 | cytopathic effect / XTT |  | 0.065 µM
CCc1c(Sc2cc(C)cc(C)c2)n(COCCOP(=O)(O)OC[C@H]2O[C@@H](n3cc(C)c(=O)[nH]c3=O)C[C@@H]2N=[N+]=[N-])c(=O)[nH]c1=O |  | IIIB MKC-442-resistant (RT Y181C) | MT-4 | EC50 | cytopathic effect / MTT | RT-Y181C | 0.002 µM
Cn1cnc2c(ncn2[C@@H]2O[C@H](CO[Si](C)(C)C(C)(C)C)C3(OS(=O)(=O)C=C3N)[C@H]2O[Si](C)(C)C(C)(C)C)c1=O |  | IIIB | C8166 | EC50 | syncytia |  | 0.1 µg/mL
CCOc1cccc(Cc2cc(C3CCN(C[C@H]4CN([C@@H](C(=O)O)C(C)(C)C)C[C@@H]4c4cccc(F)c4)CC3)n(CC)n2)c1 | 50% human serum | BaL | HeLa | EC90 | β-galactosidase |  | 0.1 µM
Cc1cn([C@H]2C[C@H](N=[N+]=[N-])[C@@H](CO)O2)c(=O)[nH]c1=O |  | BI-RG587-resistant | PBMC | EC50 | RT activity |  | 0.004 µM
CC(C)=CCN1Cc2cccc3[nH]c(=S)n(c23)C[C@@H]1C |  | IIIB | MT-2 | EC50 | cytopathic effect | RT-R83K | 0.15 µM
COc1c(CCC(C)C)c(O)cc2c1C[C@H](c1ccc(O)c(CCC(C)C)c1O)CO2 |  | IIIB | MT-4 | EC50 | MTT |  | >100 µg/mL
CN(C)c1ncnc2c1ncn2[C@@H]1O[C@H](CO[Si](C)(C)C(C)(C)C)C2(OS(=O)(=O)C=C2N)[C@H]1O[Si](C)(C)C(C)(C)C |  | IIIB | CEM | EC50 | syncytia |  | 0.15 µg/mL
O=C(O)P(=O)(O)O |  | LAI viral clone (RT-Q161L H208Y) | HT4LACZ-1 + HT4 LacZ-1 | EC50 | syncytia | RT-Q161L H208Y | 336 µM
CC[C@@H](C)[C@H](C(=O)O)N1C[C@H](CN2CCC(c3cc(Cc4ccc(O)cc4)nn3CC)CC2)[C@@H](c2cccc(F)c2)C1 | 50% human serum | BaL | HeLa | EC50 | β-galactosidase |  | <0.011 µM
Cc1c(O)cccc1C(=O)N[C@@H](CSc1ccccc1)[C@H](O)CN1C[C@H]2CCCC[C@H]2C[C@H]1C(=O)NC(C)(C)C |  | MM | PBMC | EC50 | p24 | MDR | >1 µM
Cn1c2ccccc2c2c1cc(C#N)c(=O)n2-c1ccc([N+](=O)[O-])cc1 |  | Recombinant | HeLa | EC50 | luciferase | RT-M41L A62V S68N G112S M184V | >0.0451 µM
COc1cccc(CCNC(=S)Nc2nccs2)c1 |  | IIIB | MT-4 | EC50 | cytopathic effect |  | 0.68 µM
Nc1ncnc2c1c1c(=O)[nH]c(=O)[nH]c1n2[C@@H]1O[C@H](COC(=O)c2ccccc2)[C@@H](O)[C@H]1O |  | LAI | PBMC | EC50 |  |  | 5.7 µM
Nc1nc(=O)n([C@@H]2CS[C@H](CO)O2)cc1F |  | H112-2 (AZT-susceptible) | PBMC | EC50 | RT activity |  | 0.006 µM
CCn1nc(Cc2ccc(OC)c(C#N)c2)cc1C1CCN(C[C@H]2CN([C@@H](C(=O)O)C(C)C)C[C@@H]2c2cccc(F)c2)CC1 | 50% human serum | BaL | HeLa | EC50 | β-galactosidase |  | <0.3 µM
Nc1ccn([C@H]2CC[C@@H](CO)O2)c(=O)n1 |  | LAI | MT-2 | EC50 | cytopathic effect / MTT |  | 4 µM
CCn1nc(Cc2ccc(C)cc2)cc1C1CCN(C[C@H]2CN([C@@H](C(=O)O)C(C)(C)C)C[C@@H]2c2cccc(F)c2)CC1 | 50% human serum | BaL | HeLa | EC50 | β-galactosidase |  | <0.033 µM
Cc1cc(C#N)cc(C)c1Oc1nc(Nc2ccc(C#N)cc2)nc(N)c1Br | clinical isolate | Clinical isolate | HEK293T | EC50 | luciferase |  | 0.00179 µM
C[C@H]1C[C@@H](c2nc(C(=O)NCc3ccc(F)cc3)c(O)c(=O)n2C)N(C)C1 | 10% FBS | IIIB | MT-4 | EC95 | p24 / ELISA |  | >1 µM